The target in the assay is biotinylated-5-Helix/D5-FITC IgG. Briefly: D5 IgG binding IC50 (nM)***. As to conditions: read-out: D5 IgG binding IC50 (nM)***.

From patent US7811577B2 (priority 2004, dated 2010) come the findings set out here.

By IC50 is commonly meant the concentration that gives 50% inhibition.

B1: ac-C(Acm)(thioS17N17)3: one ac-C(Acm)Ttds-CCS17N17 ligated via two thioether bonds to two acetyl-GGGS17N17 chains (peptide)
peptide 1: CCCGGIEKKIEAIEKKIEAIEKLLQLTVWGIKQLQARIL
peptide 2: GGGIEKKIEAIEKKIEAIEKLLQLTVWGIKQLQARIL
modifications: cyclised or stapled
B1: the IC50 is 51 nM.

B2: ac-C(Acm)(thioIZN17)3: one ac-C(Acm)Ttds-CCIZN17 chain ligated via two thioether bonds to two acetyl-GGGIZN17 chains (peptide)
peptide 1: CCCGGIKKEIEAIKKEQEAIKKKIEAIEKLLQLTVWGIKQLQARIL
peptide 2: GGGIKKEIEAIKKEQEAIKKKIEAIEKLLQLTVWGIKQLQARIL
As for B2, the IC50 came out at 28 nM.
